Laboratory results taken from patent publication US9550749B2, “Endoparasite control agent and method for using the same” (The University of Tokyo, priority 2012, dated 2017).

Sequences of proteins named here, by UniProt entry; tags and fusion partners are left off. Residues count along the entry.
UniProt O44074, 22-282 limits assumed: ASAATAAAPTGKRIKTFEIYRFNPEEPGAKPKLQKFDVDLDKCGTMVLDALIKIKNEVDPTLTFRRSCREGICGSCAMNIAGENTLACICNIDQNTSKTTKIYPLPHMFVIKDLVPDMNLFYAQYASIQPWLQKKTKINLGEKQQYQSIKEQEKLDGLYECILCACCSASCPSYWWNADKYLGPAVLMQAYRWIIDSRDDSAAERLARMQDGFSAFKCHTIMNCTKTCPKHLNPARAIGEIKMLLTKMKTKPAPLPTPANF
UniProt P92506, 32-188 limits assumed: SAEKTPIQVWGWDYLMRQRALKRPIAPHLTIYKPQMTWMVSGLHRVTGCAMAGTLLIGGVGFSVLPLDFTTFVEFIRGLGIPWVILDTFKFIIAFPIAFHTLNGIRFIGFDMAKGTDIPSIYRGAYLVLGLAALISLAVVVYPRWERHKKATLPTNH
UniProt P92507, 26-156 limits assumed: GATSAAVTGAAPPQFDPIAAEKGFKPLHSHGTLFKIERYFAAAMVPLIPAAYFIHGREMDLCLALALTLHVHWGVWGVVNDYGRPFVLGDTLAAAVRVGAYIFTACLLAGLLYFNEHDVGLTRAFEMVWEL
UniProt Q33862, 19-645 partner limits assumed: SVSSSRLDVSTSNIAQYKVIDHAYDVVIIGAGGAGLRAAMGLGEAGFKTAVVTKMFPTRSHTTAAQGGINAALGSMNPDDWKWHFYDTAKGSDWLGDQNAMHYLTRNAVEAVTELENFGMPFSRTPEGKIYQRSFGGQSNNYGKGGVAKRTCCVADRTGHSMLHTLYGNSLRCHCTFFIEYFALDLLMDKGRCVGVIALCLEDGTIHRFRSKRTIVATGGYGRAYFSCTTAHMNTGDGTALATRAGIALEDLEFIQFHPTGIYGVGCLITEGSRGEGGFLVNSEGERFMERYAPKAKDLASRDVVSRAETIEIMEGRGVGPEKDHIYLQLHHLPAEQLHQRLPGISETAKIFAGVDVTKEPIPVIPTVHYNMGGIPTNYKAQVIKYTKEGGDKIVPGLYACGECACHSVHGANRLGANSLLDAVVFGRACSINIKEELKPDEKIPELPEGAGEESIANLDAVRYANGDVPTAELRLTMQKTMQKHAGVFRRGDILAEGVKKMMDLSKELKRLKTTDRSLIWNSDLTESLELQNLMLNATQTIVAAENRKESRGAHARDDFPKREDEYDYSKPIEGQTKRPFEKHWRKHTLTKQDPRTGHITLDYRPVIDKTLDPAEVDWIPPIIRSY

Target: Ascaris suum succinate-ubiquinone reductase (mitochondrial complex II) (Ascaris suum, UniProt O44074+P92506+P92507)
Experiment: In vitro measurement of inhibitory activity on Ascaris suum succinate-ubiquinone reductase (mitochondrial complex II)
Type: biochemical
Conditions: read-out: Ascaris suum IC50 value (A); mitochondria from adult Ascaris suum muscle, UQ2 60 μM, succinate 10 mM, 25° C.
Protocol: In Vitro Measurement of Inhibitory Activity on Ascaris suum Succinate-Ubiquinone Reductase (Mitochondrial Complex II)
To a solution containing 50 mM potassium phosphate (pH 7.4) and 0.1% (w/v) sucrose monolaurate, an electron acceptor ubiquinone-2 (UQ2) was added at a final concentration of 60 μM, and the mixture was allowed to stand at 25° C. for 20 minutes. To this, potassium cyanide (final concentration: 2 mM) and mitochondria prepared from adult Ascaris suum muscle were added, and thorough mixing was done. To aliquots of the mixture, an inhibitor to be tested was added at various concentrations, and the mixtures were allowed to stand at 25° C. for 3 minutes. The enzymatic reaction was initiated by addition of potassium succinate (final concentration: 10 mM). The enzymatic activity was calculated based on the measurement of change in the absorbance at 278 nm of UQ2 (e=1.5×10^4 M^−1 cm^−1), and IC50 was determined from the plot of the inhibition percentage against the inhibitor concentration.

Question: `C[C@@H](Cn1nc(Cl)c(Cl)c1C(F)(F)F)NC(=O)c1ccccc1I` was tested. Which IC50 did it give?
Answer: 2.5 nM
